According to US20260183277A1, “ANTIVIRAL PHARMACEUTICAL COMPOSITION COMPRISING ERRy INHIBITOR AS ACTIVE INGREDIENT” (priority 2024, published 2026):

Test system: SARS-CoV-2 KCDC03 strain
Test: SARS-CoV-2 KCDC03 challenge of Syrian hamsters
Type: in vivo

CC(C)N1CCN(c2ccc(/C(=C(/CCCO)c3ccccc3)c3ccc(O)cc3)cc2)CC1 [DN200434]
body weight loss (SARS-CoV-2-challenged hamsters): alleviated
histopathological lung lesions (hamsters): effectively mitigated
viral genome replication and progeny production in lungs (hamsters): substantial reduction
levels of LTB4, PGE2, IL-6, TNF-α, and MCP-1 in BALF (hamsters, i.p., vs vehicle-treated controls): significantly reduced
TAG levels in lung tissues (hamsters, vs virus-challenged, vehicle-treated control): decrease
